Values joined by “and” are separate entries in the source; they are usually repeats but may differ in a detail not shown here. Equal entries are not always repeated.
What was measured:
[1] = target: T1, APH(2”)-IVa (Enterococcus casseliflavus, UniProt O68183); assay: Pyruvate Kinase-Lactate Dehydrogenase-coupled enzyme assay; conditions: for Inhibition (%) at 10 µM: 10 µM compound; for Ki: 25°C, competitive vs MgATP, 100 µM kanamycin A
[2] = test system: S. aureus ATCC 33591 (MRSA); assay: Cellular uptake assay; conditions: single replicate
[3] = test system: E. faecalis ATCC 29212; assay: Cellular uptake assay; conditions: single replicate
[4] = target: T1, APH(2”)-IVa; assay: Thermal shift assay; conditions: 500 µM compound
[5] = test system: Pseudomonas aeruginosa C0214; assay: Bacterial growth / checkerboard assay with kanamycin A

Protein sequences, listed by entry. Tags and fused reporters are not part of them. Residues count along the entry.
UniProt O68183, 1-301: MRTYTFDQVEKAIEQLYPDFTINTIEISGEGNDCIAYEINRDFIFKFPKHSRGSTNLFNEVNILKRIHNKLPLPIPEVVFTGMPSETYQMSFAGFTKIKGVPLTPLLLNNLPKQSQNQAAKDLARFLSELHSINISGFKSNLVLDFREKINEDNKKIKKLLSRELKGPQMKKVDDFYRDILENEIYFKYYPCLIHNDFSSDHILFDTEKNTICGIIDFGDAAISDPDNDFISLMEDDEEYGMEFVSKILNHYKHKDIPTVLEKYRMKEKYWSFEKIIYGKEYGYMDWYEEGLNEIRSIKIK

With `C[C@@H](CO)Cn1cc(-c2c(Cl)cnc3[nH]ccc23)nn1` the “Inhibition (%) at 10 µM” value [1] was 91%, the Ki [1] was 367 nM and the concentration in cytoplasm [2] was 0.478 ng/mL and 0.267 ng/mL and 0.616 ng/mL. For the same compound, the concentration in membrane [2] was 0.219 ng/mL and 0.248 ng/mL and 0.338 ng/mL, the “concentration in cell lysate” value [3] was 1.12 ng/mL and 1.33 ng/mL and the concentration in cytoplasm [3] was 1.37 ng/mL and 1.15 ng/mL and 2.66 ng/mL. For the same compound, the concentration in membrane [3] was 1.16 ng/mL and 1.3 ng/mL and 1.19 ng/mL, the concentration in periplasm [3] was 1.91 ng/mL and 1.1 ng/mL and 1.19 ng/mL and the “ΔTm (°C) at 500 µM” value [4] was 1.47 °C.

With `C[C@H](CO)Cn1cc(-c2c(Cl)cnc3[nH]ccc23)nn1` the “Inhibition (%) at 10 µM” value [1] was 91%, the Ki [1] was 375 nM and the “concentration in cell lysate” value [2] was 1.28 ng/mL and 1.64 ng/mL and 1.22 ng/mL. The concentration in cytoplasm [2] was 0.241 ng/mL and 0.347 ng/mL and 0.466 ng/mL, the concentration in membrane [2] was 0.243 ng/mL and 0.237 ng/mL and 0.161 ng/mL and the concentration in periplasm [2] was 0.384 ng/mL and 0.893 ng/mL and 0.839 ng/mL. The “concentration in cell lysate” value [3] was 1.15 ng/mL, the concentration in cytoplasm [3] was 1.65 ng/mL and 1.13 ng/mL and the concentration in periplasm [3] was 1.78 ng/mL and 1.1 ng/mL. The “ΔTm (°C) at 500 µM” value [4] was 1.51 °C.

`OC[C@@H](O)Cn1cc(-c2c(Cl)cnc3[nH]ccc23)nn1` showed an OD600nm ([5]; inhibitor 125 µM, KanaA 0 µg.mL-1) of 0.3662, an OD600nm ([5]; inhibitor 125 µM, KanaA 8 µg.mL-1) of 0.3282 and an OD600nm ([5]; inhibitor 125 µM, KanaA 16 µg.mL-1) of 0.3218. It also gave an OD600nm ([5]; inhibitor 125 µM, KanaA 32 µg.mL-1) of 0.1796, an OD600nm ([5]; inhibitor 125 µM, KanaA 64 µg.mL-1) of 0.00015 and an OD600nm ([5]; inhibitor 125 µM, KanaA 128 µg.mL-1) of 0.0000. The OD600nm ([5]; inhibitor 125 µM, KanaA 256 µg.mL-1) was 0.0000, the OD600nm ([5]; inhibitor 125 µM, KanaA 512 µg.mL-1) was 0.0000 and the OD600nm ([5]; inhibitor 125 µM, KanaA 1024 µg.mL-1) was 0.0000. It also gave an OD600nm ([5]; inhibitor 125 µM, KanaA 2048 µg.mL-1) of 0.0000, an OD600nm ([5]; inhibitor 125 µM, KanaA 4096 µg.mL-1) of 0.0035 and an OD600nm ([5]; inhibitor 250 µM, KanaA 0 µg.mL-1) of 0.3709. The OD600nm ([5]; inhibitor 250 µM, KanaA 8 µg.mL-1) was 0.3282, the OD600nm ([5]; inhibitor 250 µM, KanaA 16 µg.mL-1) was 0.3352 and the OD600nm ([5]; inhibitor 250 µM, KanaA 32 µg.mL-1) was 0.1559. It also gave an OD600nm ([5]; inhibitor 250 µM, KanaA 64 µg.mL-1) of 0.0000, an OD600nm ([5]; inhibitor 250 µM, KanaA 128 µg.mL-1) of 0.0000 and an OD600nm ([5]; inhibitor 250 µM, KanaA 256 µg.mL-1) of 0.0000. The OD600nm ([5]; inhibitor 250 µM, KanaA 512 µg.mL-1) was 0.0003, the OD600nm ([5]; inhibitor 250 µM, KanaA 1024 µg.mL-1) was 0.0006 and the OD600nm ([5]; inhibitor 250 µM, KanaA 2048 µg.mL-1) was 0.0015. For the same compound, the OD600nm ([5]; inhibitor 250 µM, KanaA 4096 µg.mL-1) was 0.0038, the OD600nm ([5]; inhibitor 500 µM, KanaA 0 µg.mL-1) was 0.3763 and the OD600nm ([5]; inhibitor 500 µM, KanaA 8 µg.mL-1) was 0.3312. It also gave an OD600nm ([5]; inhibitor 500 µM, KanaA 16 µg.mL-1) of 0.3413, an OD600nm ([5]; inhibitor 500 µM, KanaA 32 µg.mL-1) of 0.0771 and an OD600nm ([5]; inhibitor 500 µM, KanaA 64 µg.mL-1) of 0.0000. It also gave an OD600nm ([5]; inhibitor 500 µM, KanaA 128 µg.mL-1) of 0.0000, an OD600nm ([5]; inhibitor 500 µM, KanaA 256 µg.mL-1) of 0.0000 and an OD600nm ([5]; inhibitor 500 µM, KanaA 512 µg.mL-1) of 0.0000. It also gave an OD600nm ([5]; inhibitor 500 µM, KanaA 1024 µg.mL-1) of 0.0000, an OD600nm ([5]; inhibitor 500 µM, KanaA 2048 µg.mL-1) of 0.0027 and an OD600nm ([5]; inhibitor 500 µM, KanaA 4096 µg.mL-1) of 0.0024. For the same compound, the “Inhibition (%) at 10 µM” value [1] was 90%, the Ki [1] was 404 nM and the “ΔTm (°C) at 500 µM” value [4] was 1.21 °C.

For `C[C@@H](CCO)n1cc(-c2c(Cl)cnc3[nH]ccc23)nn1`, the “Inhibition (%) at 10 µM” value [1] was 86%, the Ki [1] was 482 nM and the “ΔTm (°C) at 500 µM” value [4] was 1.58 °C.

`Clc1cnc2[nH]ccc2c1-c1ccn[nH]1` was tested, and the “Inhibition (%) at 10 µM” value [1] was 90%, the Ki [1] was 388 nM and the “ΔTm (°C) at 500 µM” value [4] was 3.23 °C.

`C[C@H](O)Cn1cc(-c2c(Cl)cnc3[nH]ccc23)nn1` was tested, and the “Inhibition (%) at 10 µM” value [1] was 86%, the Ki [1] was 534 nM and the “ΔTm (°C) at 500 µM” value [4] was 1.60 °C.

`C[C@H](CCO)n1cc(-c2c(Cl)cnc3[nH]ccc23)nn1` was tested, and the “Inhibition (%) at 10 µM” value [1] was 90%, the Ki [1] was 348 nM and the “ΔTm (°C) at 500 µM” value [4] was 1.43 °C.

For `Clc1cnc2[nH]ccc2c1-c1cn(Cc2ccccc2)nn1`, the “Inhibition (%) at 10 µM” value [1] was 63%, the Ki [1] was 6500 nM and the “ΔTm (°C) at 500 µM” value [4] was 0.37 °C.

`COc1ccc(CNC(=O)Cn2cc(-c3c(Cl)cnc4[nH]ccc34)nn2)cc1` was tested, and the “Inhibition (%) at 10 µM” value [1] was 25%, the Ki [1] was > 10000 nM and the “ΔTm (°C) at 500 µM” value [4] was -0.33 °C.

With `COC(=O)Cn1cc(-c2c(Cl)cnc3[nH]ccc23)nn1` the “Inhibition (%) at 10 µM” value [1] was 91%, the Ki [1] was 425 nM and the “ΔTm (°C) at 500 µM” value [4] was 1.48 °C.

In the case of `Clc1cnc2[nH]ccc2c1-c1cn(-c2cccnc2)nn1`, the “Inhibition (%) at 10 µM” value [1] is reported as 84%, the Ki [1] is reported as 376 nM and the “ΔTm (°C) at 500 µM” value [4] is reported as 1.03 °C.

`O=C(Cn1cc(-c2c(Cl)cnc3[nH]ccc23)nn1)NCc1ccccc1` was tested, and the “Inhibition (%) at 10 µM” value [1] was 62%, the Ki [1] was 9900 nM and the “ΔTm (°C) at 500 µM” value [4] was -0.20 °C.

For `O=C(O)Cn1cc(-c2c(Cl)cnc3[nH]ccc23)nn1`, the “Inhibition (%) at 10 µM” value [1] was 24%, the Ki [1] was 14500 nM and the “ΔTm (°C) at 500 µM” value [4] was 1.36 °C.

In the case of `NC(=O)Cn1cc(-c2c(Cl)cnc3[nH]ccc23)nn1`, the “Inhibition (%) at 10 µM” value [1] is reported as 82%, the Ki [1] is reported as 799 nM and the “ΔTm (°C) at 500 µM” value [4] is reported as 0.45 °C.

`C[C@@H](CO)n1cc(-c2c(Cl)cnc3[nH]ccc23)nn1` was tested, and the “Inhibition (%) at 10 µM” value [1] was 88%, the Ki [1] was 613 nM and the “ΔTm (°C) at 500 µM” value [4] was 1.94 °C.

Source: PMC12678819, “Targeting bacterial kinases as a strategy to counteract antibiotic resistance” (2025)
